Compound potency records, mixed from different reports. Data source: NIAID ChemDB in PubChem.

Common to all: whole-cell or culture tests; agent: Vaccinia virus; endpoint: EC50

Blank or dashed fields: not listed here. ECn is the concentration giving n% inhibition of infection, replication or growth. Conditions beyond the fields shown may differ between rows.

structure | cells | strain or isolate | value
Cc1cn([C@H]2O[C@H](CO)[C@@H](N=[N+]=[N-])[C@H]2F)c(=O)nc1N | PRK | - | >400 µg/mL
Nc1ncnc2c1ncn2[C@@H]1C=C(CO)[C@@H](O)[C@@H]1O | PRK | - | 20 µg/mL
C#Cc1cn(S(=O)(=O)c2ccc(C)cc2)c(=O)[nH]c1=O | HEL | - | >200 µM
Nc1ccn([C@@H]2OC[C@H](CO)[C@H]2O)c(=O)n1 | E6SM | - | 240 µg/mL
Nc1ncnc2c1ncn2COCCO | PRK | - | 20 µg/mL
Nc1nc2c(ncn2CCOCP(=O)(O)O)c(=O)[nH]1 | HFF | Copenhagen | 5.4 µM
CCCCCC#Cc1cn(S(=O)(=O)c2ccc(C)cc2)c(=O)[nH]c1=O | HEL | - | >40 µM
CC1(C)OC2C(O1)[C@@H](COS(=O)(=O)NC(=O)OC(COCc1ccccc1)OCc1ccccc1)O[C@H]2n1ccc(=O)[nH]c1=O | VERO | - | 54 µg/mL
O=c1[nH]c(=O)n([C@H]2C[C@H](O)[C@@H](CO)O2)cc1/C=C/Br | PRK | - | 7 µg/mL
Nc1ccn(COCCO)c(=O)n1 | PRK | - | >400 µg/mL
CCCCCCCCCCC#Cc1cn(S(=O)(=O)c2ccc(C)cc2)c(=O)[nH]c1=O | HEL | - | >200 µM
Nc1nc2c(ncn2C[C@H](CO)OCP(=O)(O)O)c(=O)[nH]1 | E6SM | - | 30 µM
O=c1[nH]c(=O)n(COCCO)cc1[N+](=O)[O-] | PRK | - | >400 µg/mL
Nc1ncnc2c1ncn2C[C@@H](CF)OCP(=O)(O)O | E6SM | - | 1312 µM
Cn1cc(CCCCOc2ccc(C(=O)O)cc2)cc1C=O | VERO | - | >380 µM
O=P(O)(O)OC[C@H]1OC(O)[C@@H](O)[C@@H](O)[C@@H]1O | PRK | - | >400 µg/mL
Nc1ncnc2c1ncn2[C@@H]1C=C(CO)[C@@H](O)C1 | PRK | - | 4 µg/mL
Nc1ncnc2c1ncn2C[C@@H](CO)OCP(=O)(O)O | PRK | - | 0.3 µg/mL
O=c1[nH]c(=O)n([C@H]2C[C@H](O)[C@@H](CO)O2)cc1I | Primary rabbit kidney cells | - | 0.2 µg/mL
O=c1[nH]c(=O)n([C@H]2C[C@H](O)[C@@H](CO)O2)cc1I | E6SM | - | 0.2 µg/mL
CCCCCCCc1cc2cnc(=O)[nH]c2o1 | HEL | - | >200 µM
Nc1ncc2ncn(C[C@@H](CF)OCP(=O)(O)O)c2n1 | E6SM | - | >600 µM
O=C(C1CC1)N(O)c1ccc(Cl)cc1 | E6SM | - | >80 µg/mL
O=C(O)Cc1cn([C@H]2C[C@H](O)[C@@H](CO)O2)c(=O)[nH]c1=O | PRK | - | 600 µM
CCc1cn([C@H]2C[C@H](O)[C@@H](CO)O2)c(=O)[nH]c1=O | Primary rabbit kidney cells | - | 1 µg/mL
Nc1ncnc2c1ncn2C[C@H](O)CO | PRK | - | 20 µg/mL
CCc1cn([C@H]2C[C@H](O)[C@@H](CO)O2)c(=O)[nH]c1=O | PRK | - | 20 µg/mL
CCC(Sc1ncnc2c1cnn2CCCCO)C(N)=O | E6SM | - | >400 µg/mL
CCc1cn([C@H]2C[C@H](O)[C@@H](COP(=O)(O)O)O2)c(=O)[nH]c1=O | BSC-1 | - | 41 µg/mL
O=C(CCC1CCCCC1)N(O)c1ccc(Cl)cc1 | E6SM | - | >16 µg/mL
CCOC(=O)c1ccc(OCCCCc2cc(C=O)n(C)c2)cc1 | VERO | - | >55 µM
CC(Sc1ncnc2c1cnn2COCCO)C(N)=O | E6SM | - | >400 µg/mL
Nc1ncnc2c1ncn2[C@H]1OC[C@@H](CO)C1O | E6SM | - | 240 µg/mL
Nc1nccc2c1ncn2[C@@H]1C[C@H](CO)[C@@H](O)[C@H]1O | PRK | - | 0.7 µg/mL
Nc1nc(=O)n([C@@H]2C[C@H](CO)[C@@H](O)C2)cc1/C=C/Br | Primary rabbit kidney cells | - | 200 µg/mL
Nc1ncc2ncn(C[C@@H](CO)OCP(=O)(O)O)c2n1 | E6SM | - | ≥660 µM
Cc1cn([C@H]2OC[C@@H](CO)C2F)c(=O)[nH]c1=O | E6SM | - | 240 µg/mL
O=c1[nH]c(=O)n(COCCO)cc1/C=C/Br | PRK | - | >400 µg/mL
Nc1ncnc2c1ncn2[C@@H]1O[C@H](COP(=O)(O)O[C@@H]2[C@H](O)[C@@H](COP(=O)(O)O[C@@H]3[C@H](O)[C@@H](COP(=O)(O)OP(=O)(O)OP(=O)(O)O)O[C@H]3n3cnc4c(N)ncnc43)O[C@H]2n2cnc3c(N)ncnc32)[C@@H](O)[C@H]1O | PRK | - | 150 µg/mL
Nc1nc(N)c2ncn(C[C@H](CF)OCP(=O)(O)O)c2n1 | E6SM | - | >600 µM
CC(Sc1ncnc2c1cnn2CCCCO)C(N)=O | E6SM | - | >400 µg/mL
Nc1nc(Cl)c2ncn(COCCO)c2n1 | PRK | - | 70 µg/mL
O=c1[nH]c(=O)n([C@H]2C[C@H](O)[C@@H](COP(=O)([O-])OP(=O)([O-])OC[C@@H]3OC(O)[C@H](O)[C@H](O)[C@H]3O)O2)cc1I | PRK | - | 0.4 µg/mL
[N-]=[N+]=N[C@H]1[C@@H](F)[C@H](N2C=CC(N)NC2=O)O[C@@H]1CO | PRK | - | >400 µg/mL

The last 3 rows once more:

{"structure": "Nc1nc(Cl)c2ncn(COCCO)c2n1", "cells": "PRK", "value": "70 µg/mL"}
{"structure": "O=c1[nH]c(=O)n([C@H]2C[C@H](O)[C@@H](COP(=O)([O-])OP(=O)([O-])OC[C@@H]3OC(O)[C@H](O)[C@H](O)[C@H]3O)O2)cc1I", "cells": "PRK", "value": "0.4 µg/mL"}
{"structure": "[N-]=[N+]=N[C@H]1[C@@H](F)[C@H](N2C=CC(N)NC2=O)O[C@@H]1CO", "cells": "PRK", "value": ">400 µg/mL"}